# PubChem BioAssay AID624099, ICCB-Longwood | 2012
# Aim: 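Knock-downs relieving repression by E2 of an HPV18 LCR luciferase reporter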 (primary screen)
# Cell system: human C33A cervical carcinoma cells (HPV-negative) stably expressing BPV1 E2 and an HPV18 LCR luciferase reporter
# Reagent: siRNA pool against human genes, 40 nM
# Duration: 72 h
# Detection: 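Per-well luciferase luminescence, z-scored on each plate against the plate mean and SD with control wells left out, then averaged across three replicate plates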
# Reading the numbers: mean z-score and z-score: higher = stronger reporter signal, weaker E2 silencing
# Call rule: 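Hit if mean z-score reaches 2 and two or more of three replicate z-scores also reach 2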
# Here is a random part of about 21,000 reagents tested. 497 of all reagents (2.4%) count as active. 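Higher z means weaker E2 silencing; only reporter increases were scored, and knock-downs that hurt cell survival may mask genuine repressor factors.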 Entries without a mark were called inactive.
gene symbol,mean z-score,"z-score, replicate A","z-score, replicate B","z-score, replicate C"
HK1,0.19,0.82,-0.1,-0.15
TRIOBP,0.39,-0.01,0.65,0.52
LOC143243 (retired record),-0.71,-1.3,-0.46,-0.37
JMJD6,-2.61,-2.52,-2.68,-2.63
GALT,0.21,0.62,0,0.02
BHMT,0.6,1.07,0.11,0.6
BPIFB6,-0.96,-0.88,-0.92,-1.07
C1orf53,0.49,0.73,0.66,0.08
TOMM70,2,2.08,1.88,2.03
CLEC4C,0.75,0.7,0.45,1.08
VTN,-0.33,-0.4,-0.05,-0.55
LINC02817,-1.12,-1.38,-0.83,-1.13
FAABTP,-1.97,-1.99,-1.99,-1.92
OSTM1,-0.27,-0.21,-0.19,-0.41
UCP3,0,0.4,-0.01,-0.4
NRXN3,-0.34,-0.15,-0.36,-0.52
SAE1,0.28,0.41,0.2,0.22
TARDBP,-1.17,-1.24,-1.11,-1.17
MEX3D,-2.14,-1.92,-2.29,-2.22
DCUN1D5,-0.48,-0.44,-0.6,-0.39
SNTA1,-0.23,-0.14,-0.38,-0.17
MDH2,-0.24,-0.5,-0.19,-0.04
ATF7IP,-0.21,0.1,-0.5,-0.22
SPTBN2,0.21,0.42,0.11,0.09
RPL29,-0.79,-0.92,-0.49,-0.97
NPPB,0.45,0.49,0.5,0.36
S1PR5,-0.32,-0.1,-0.3,-0.56
CLEC4E,0.4,0.22,0.59,0.39
SPOP,-0.33,-0.43,-0.18,-0.4
STIM1,0.41,0.41,0.41,0.42
IGHV3OR16-12,-1.16,-1.12,-1.13,-1.24
FEZ2,-0.43,-0.62,-0.33,-0.35
PARVB,-1.02,-0.71,-0.91,-1.44
SLC25A5,0.11,-0.08,0.34,0.09
PCNX4,0.41,0.51,0.37,0.35
CIMIP2A,-0.99,-1.15,-0.92,-0.91
COL1A1,0.3,0.4,0.28,0.23
TSC22D1,0.36,0.26,0.44,0.38
APTX,-0.07,-0.13,0,-0.09
BEND2,-1.32,-1.24,-1.57,-1.16
C21orf91,-0.18,-0.16,-0.27,-0.1
CPPED1,0.58,0.18,0.9,0.64
EVA1B,-0.94,-0.31,-0.32,-2.2
CORT,0.26,-0.05,0.47,0.35
PP13004 (retired record),-1.2,-1.54,-1.15,-0.9
CSNK1D,-1.03,-0.56,-1.41,-1.11
NDUFAF2,-0.17,-0.36,0.28,-0.42
PCARE,-0.01,-0.1,0.08,0
PPIL6,0.85,0.93,0.89,0.73
SCNN1D,0.38,0.28,0.49,0.38
CTBP2,1.1,1.08,0.82,1.41
GABRR1,1.83,2.29,1.82,1.38
LOC132969 (retired record),0.5,0.48,0.41,0.62
LOC402340 (retired record),0.73,0.7,0.7,0.77
LRIG2,-1.16,-1.13,-1.08,-1.27
NEGR1,-0.09,-0.24,0.06,-0.09
ARMH4,0.54,1.09,0.38,0.17

Targets listed so far whose target name begins with G or g (2):
gene symbol,mean z-score,"z-score, replicate A","z-score, replicate B","z-score, replicate C"
GALT,0.21,0.62,0,0.02
GABRR1,1.83,2.29,1.82,1.38
